# Assay results from patent US20020115830A1 (WISCONSIN ALUMNI RESEARCH FOUNDATION, published 2002).
# B1: GST alone (enzyme)
# chain: MSPILGYWKIKGLVQPTRLLLEYLEEKYEEHLYERDEGDKWRNKKFELGLEFPNLPYYIDGDVKLTQSMAIIRYIADKHNMLGGCPKERAEISMLEGAVLDIRYGVSRIAYSKDFETLKVDFLSKLPEMLKMFEDRLCHKTYLNGDHVTHPDFMLYDALDVVLYMDPMCLDAFPKLVCFKKRIEAIPQIDKYLKSSKYIAWPLQGWQATFGGGDHPPK
# notes: also called glutathione-S-transferase; GST protein
# How the values were obtained:
# [1] = target: T1, HIV-1 Gag expressed in HeLa cells in the absence of Vpu (vpu- protease- proviral construct pHJ121) (HIV-1); assay: GST pull-down on Glutathione-Sepharose, anti-Gag Western blot
# T1 construct: also called Gag from HeLa cell lysates (vpu- construct)
# [2] = target: T2, HIV-1 Gag expressed in HeLa cells in the presence of Vpu (vpu+ protease- proviral construct) (HIV-1); assay: as above
# T2 construct: also called Gag from HeLa cell lysates (vpu+ construct)
binder,measurement,setting,value
B1,binding result,[1],no binding (tested: GST approximately 0.5 uM)
same,binding result,[2],no binding (tested: GST approximately 0.5 uM)
